Assay results reported in US7504203B2 (priority 2002, dated 2009).

Molecular target: GST-fused SCDH enzyme expressed from the resistant strain cDNA (Pyricularia oryzae, UniProt P56221, V75M)
Conditions: FIG. 9

Compound | resistance of the GST-fused SCDH enzyme to the inhibitor
CC(NC(=O)C(C#N)C(C)(C)C)c1ccc(Cl)cc1Cl (centres unmarked) | show resistance
1-(2,4-dichlorophenyl)oxy-N-(1-cyano-1,2-dimethyl)propylethanecarboxamide | show resistance
